## PSTVd stem 15 mutant pool in Nicotiana benthamiana

Values reported by Wu et al. 2024 (doi:10.1371/journal.ppat.1012142).

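A pool of all variants was put on leaves of three Nicotiana benthamiana plants. Progeny were sequenced from the inoculated region (day 5), the margin of the inoculated leaf (day 10) and systemic leaves (day 12).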

The pool varies stem 15 of the PSTVd intermediate strain in the pattern CUGGAGCGAUNGNNUNNG; wild type is CUGGAGCGAUCGCUUCGG (upper and lower strand joined, each 5' to 3', the first 9 letters being the upper strand).

Numbers give reads per thousand; 0 = not seen among the reads, higher = more abundant. Each value is the mean of three plants. "Pool" is the share in the plasmid pool used as inoculum, on the same scale. The inoculated region was read from the minus strand, the other sites from the plus strand. Sequences that differ at fixed positions probably stem from PCR or sequencing errors, and defective variants can be carried along by functional ones.

For CUGGAGCGAUCGUAUUUG (pool 0.921) the result was inoculated region 0.194; leaf margin 0.0312; systemic leaves 0.
For CUGGAGCGAUUGAGUGUG (pool 0.776) the result was inoculated region 0.313; leaf margin 0.0260; systemic leaves 0.
For CUGGAGCGAUAGGUUCUG (pool 0.776) the result was inoculated region 0.239; leaf margin 0.0350; systemic leaves 0.
For CUGGAGCGAUUGCGUAAG (pool 1.03) the result was inoculated region 0.607; leaf margin 0.0509; systemic leaves 0.
For CUGGAGCGAUCGAAUGUG (pool 0.808) the result was inoculated region 0.265; leaf margin 0.0419; systemic leaves 0.
For CUGGAGCGAUAGCUUUCG (pool 0.776) the result was inoculated region 0.222; leaf margin 0.0276; systemic leaves 0.
For CUGGAGCGAUUGGAUGGG (pool 0.792) the result was inoculated region 0.284; leaf margin 0.0450; systemic leaves 0.
For CUGGAGCGAUUGCCUCGG (pool 0.889) the result was inoculated region 0.312; leaf margin 0.0664; systemic leaves 0.
For CUGGAGCGAUCGGGUGGG (pool 1.15) the result was inoculated region 0.271; leaf margin 0.0424; systemic leaves 0.
For CUGGAGCGAUGGCGUUUG (pool 0.776) the result was inoculated region 0.241; leaf margin 0.0403; systemic leaves 0.
For CUGUAGCGAUUGCCUUAG (pool 0.0162) the result was inoculated region 0; leaf margin 0.00528; systemic leaves 0.
For CUGGAGCGAUGGUGUGUG (pool 0.937) the result was inoculated region 0.305; leaf margin 0.0175; systemic leaves 0.
For CUGGAGCGAUAGAGUAGG (pool 0.549) the result was inoculated region 0.288; leaf margin 0.0334; systemic leaves 0.
For CUGGAGCGAUCGGGUAGG (pool 0.824) the result was inoculated region 0.313; leaf margin 0.0229; systemic leaves 0.
For CUGGAGCGAUCGUUUGUG (pool 0.840) the result was inoculated region 0.319; leaf margin 0.0356; systemic leaves 0.
For CUGGGGCGAUCGAGUGUG (pool 0.0162) the result was inoculated region 0; leaf margin 0; systemic leaves 0.
For CUGGAGCGAUAGAAUUAG (pool 0.808) the result was inoculated region 0.315; leaf margin 0.0616; systemic leaves 0.
For CAUGAGCGAUUGUUUCAG (pool 0.0162) the result was inoculated region 0; leaf margin 0; systemic leaves 0.
For CUGGAGCGAUCGCGUCAG (pool 0.776) the result was inoculated region 0.256; leaf margin 0.0601; systemic leaves 0.
For CAGGAGCGAUUGCGUGCG (pool 0.0162) the result was inoculated region 0; leaf margin 0; systemic leaves 0.
For CUGGAGCGAUGGUCUGCG (pool 1.05) the result was inoculated region 0.557; leaf margin 0.0403; systemic leaves 0.
For CUGGAGCGAUGGGUUUAG (pool 0.921) the result was inoculated region 0.279; leaf margin 0.0397; systemic leaves 0.
For CUGAAGCGAUGGACUGAG (pool 0.0323) the result was inoculated region 0.00620; leaf margin 0; systemic leaves 0.

The opening 3 entries, copied out:

- CUGGAGCGAUCGUAUUUG (pool 0.921) -> inoculated region 0.194; leaf margin 0.0312; systemic leaves 0
- CUGGAGCGAUUGAGUGUG (pool 0.776) -> inoculated region 0.313; leaf margin 0.0260; systemic leaves 0
- CUGGAGCGAUAGGUUCUG (pool 0.776) -> inoculated region 0.239; leaf margin 0.0350; systemic leaves 0

For reference, wild type rose from 10.2 per thousand in the pool to 285, 367, 312 (inoculated region), 785, 865, 782 (leaf margin) and 854, 898, 915 (systemic leaves). Samples held 36,693 to 63,082 reads, so the smallest values rest on one or two reads.